Experimental findings from patent US9776963B2, “Small molecule CD4 mimetics and uses thereof” (priority 2008, dated 2017) are described below.

What all share (format): binding
Assay [1] deals with T1, HIV-1 YU2 gp120 glycoprotein D368A (Human immunodeficiency virus type 1 group M subtype B, UniProt P35961, D363A).
T1 construct: (His)6 (C); made in house; host or cells: 293F cells

For assay [2], the target named is T2, HIV-1 YU2 gp120 glycoprotein S375A (Human immunodeficiency virus type 1 group M subtype B, UniProt P35961, S370A).
T2 construct: (His)6 (C); made in house; host or cells: 293F cells

Assay [3] has as its target T3, HIV-1 YU2 gp120 glycoprotein D368A/S375A (Human immunodeficiency virus type 1 group M subtype B, UniProt P35961, D363A/S370A).
T3 construct: (His)6 (C); made in house; host or cells: 293F cells

Assay [4] has as its target T4, HIV-1 YU2 gp120 glycoprotein V430A (Human immunodeficiency virus type 1 group M subtype B, UniProt P35961, V417A).
T4 construct: (His)6 (C); made in house; host or cells: 293F cells

As usually defined, the pKd is the Kd on a negative log10 scale, so that one unit is a factor of ten.

pKd: −log10 of the molar value.

Take NBD-556: the pKd in assay [1] was 5.66; in assay [2], 6.51; in assay [3], 6.59; in assay [4], 5.46.
